Measured values from several laboratories, pooled; numbers as filed in NIAID ChemDB.

All rows: cytotoxicity tests; endpoint: CC50

CCn is the concentration with n% toxicity to the cells.

compound	read by	cell line	value
O=C(Nc1ccccc1)c1ccccc1O	tetrazolium	HepG2 cells	89.8 µM
Cc1ccc(S(=O)(=O)/N=C2\NC(=O)/C(=C/c3ccc(-c4ccccc4)cc3)S2)cc1	MTS	Huh 5-2	>115 µM
C[C@]1(Cn2cc(COc3cccc(F)c3)nn2)Cn2cc([N+](=O)[O-])nc2O1	MTT	J774	>40 µg/mL
CCCCCCCCCc1cc2cn(COCCO)c(=O)nc2o1	-	HEL	≥100 µM
Nc1nc(N2CCCCC2)c2ncn([C@H]3C[C@H](O)[C@@H](CO)S3)c2n1	-	MOLT-4	>100 µM
COC(=O)N[C@H](C(=O)NCCC[C@@H]1CNC[C@H]1N(CCC(C)C)S(=O)(=O)c1ccc(N)cc1)C(c1ccccc1)c1ccccc1	microscopy	T lymphoid cells	>10 µM
O=c1cc(CCl)nc2c3ncn([C@@H]4O[C@H](CO)[C@@H](O)[C@H]4O)c3ncn12	-	PBL	15 µM
Fc1ccc(/C=C/c2cc(Cl)c3ccccc3n2)cc1	MTT	TZM-bl	73.13 µM
COC(=O)N[C@H](C(=O)NC(C)CN[C@@H]1CNC[C@H]1N(CCC(C)C)S(=O)(=O)c1ccc(N)cc1)C(c1ccccc1)c1ccccc1	microscopy	T lymphoid cells	>10 µM
C[C@]1(Cn2cc(COc3ccc(OC(F)(F)F)cc3)nn2)Cn2cc([N+](=O)[O-])nc2O1	MTT	J774	>40 µg/mL
CC(C)N(Cc1cccc(OCCCCCC(=O)OC(=O)O)c1)C(=O)c1ccc(-c2ccsc2)cc1	-	HEK 293	>20 µM
Clc1ccc(-c2nc3ccn(Cc4ccc(Br)cc4)cc-3n2)cc1	-	MDBK	>100 µg/mL
CCCCOc1c(OC)cc(C(=O)N2CCN(C(=O)c3cc(OC)c(OC)c(OC)c3)CC2COC(=O)N(CC)CC)cc1OC	neutral red	MDM	>100 µM
Nc1nc(N)c2ncn([C@H]3CO[C@@H](CO)C3)c2n1	-	ATH8	>100 µM
O=C(NCc1ccc(Cl)cc1)c1cn2c(CCO)cc3cc(CN4CCOCC4)cc(c1=O)c32	MTS	CBL	>20.8 µM
CC(CO)n1cnc2c(N)ncnc21	-	U-937	>100 µM
NCCCC[C@H](NC(=O)OCc1ccccc1)C(=O)N[C@@H](CCCCN)C(=O)OCc1ccccc1	XTT	C8166	1000 µM
CC(C)N(Cc1cccc(OCCCCCC(=O)OC(=O)O)c1)C(=O)c1ccc(-c2cccc(OC(F)(F)F)c2)cc1	-	RAJI	>20 µM
C=CCSc1n[nH]c(-c2ccc(C(F)(F)F)cc2)n1	-	THP-1	75.29 µg/mL
Nc1nc(Cl)c2ncn([C@H]3CO[C@@H](CO)C3)c2n1	-	ATH8	>100 µM
O=c1cc(CCl)nc2c3ncn([C@H]4C[C@H](O)[C@@H](COP(=O)(O)O)O4)c3ncn12	-	U-937	150 µM
CC(C)N(Cc1cccc(OCCCCCC(=O)OC(=O)O)c1)C(=O)c1ccc(-c2cccc3ccccc23)cc1	-	BJ	>20 µM
CN(C)c1cccc(-c2nc3ccn(Cc4ccc(Br)cc4)cc-3n2)c1	-	MDBK	8.1 µg/mL
CN[C@@H]1[C@H](O[C@@H]2OC[C@@H](O)[C@H](O)[C@H]2O)[C@@H](O)[C@H](O[C@H]2c3cc(C)c(C(=O)N[C@H](C)C(=O)O)c(O)c3-c3c(cc4c(c3O)C(=O)c3cc(OC)cc(O)c3C4=O)[C@@H]2O)O[C@@H]1C	-	MDCK cells	>100 µg/mL
Fc1ccc(Cn2ccc3nc(-c4ccccc4)nc-3c2)cc1	-	MDBK	50 µg/mL
C=CCN(N=O)C(=O)N(CCC)CCC[C@H](NC(C)=O)C(=O)NCc1ccccc1	-	CEM-IW	>100 µM
CC(O)Cn1cnc2c(Cl)nc(N)nc21	-	U-937	100 µM
CCSc1n[nH]c(-c2cccc([N+](=O)[O-])c2C)n1	-	Panc-1	>100 µg/mL
Clc1cccc(Cn2ccc3nc(-c4ccccc4)nc-3c2)c1	-	MDBK	22 µg/mL
Cc1cc(Cl)c2cc(Cl)ccc2n1	MTT	TZM-bl	75.69 µM
CCCCCCCCCCCc1cc2cn(COCCO)c(=O)nc2o1	-	HEL	132 µM
COC(=O)N[C@H](C(=O)NCCN[C@@H]1CNC[C@H]1N(CCC(C)C)S(=O)(=O)c1ccc(N)cc1)C(c1ccccc1)c1ccccc1	microscopy	T lymphoid cells	>10 µM
COc1ncnc2c1ncn2C(C)CO	-	U-937	>100 µM
O=C(NCCSSCCNC(=O)/C(Cc1ccc(O)c(Br)c1)=N/O)/C(Cc1ccc(O)c(Br)c1)=N\O	XTT	Replicon cells	25.9 µM
O=C(Oc1ccc(Cl)cc1C(=O)Nc1ccc(Cl)c(Cl)c1)c1cnccn1	tetrazolium	HepG2 cells	4.75 µM
COC(=O)N[C@H](C(=O)NC(CN[C@@H]1CNC[C@H]1N(CCC(C)C)S(=O)(=O)c1ccc(N)cc1)CC(C)C)C(c1ccccc1)c1ccccc1	microscopy	T lymphoid cells	>10 µM
COc1c(C)c2c(c(O)c1CC(=O)O)C(=O)OC2	MTT / crystal violet	VERO 76	>12.5 µg/mL
Fc1ccc(Cn2ccc3nc(-c4c(F)cccc4F)nc-3c2)cc1	-	MDBK	70 µg/mL
COC(=O)N[C@H](C(=O)NCCN[C@@H]1CNC[C@H]1N(Cc1ccccc1)S(=O)(=O)c1ccc(N)cc1)C(c1ccccc1)c1ccccc1	microscopy	T lymphoid cells	>10 µM
COc1c(C(=O)c2c[nH]c(-c3nc4ccccc4[nH]3)c2)c(O)c(OC)c2occc12	-	HCV replicon cells	765 µM
C[C@]1(Cn2cc(COc3cccc(Cl)c3)nn2)Cn2cc([N+](=O)[O-])nc2O1	MTT	J774	>40 µg/mL
Nc1nc(F)c2ncn([C@H]3CO[C@@H](CO)C3)c2n1	-	ATH8	>100 µM
CNC(=O)N1C[C@H]2COC[C@@H](C1)CN(C(=O)[C@]13C[C@H]1Cc1cc(OC)ccc1-c1c(C4CCCCC4)c4ccc(C(=O)NS(=O)(=O)C(C)C)cc4n1C3)C2	resazurin / fluorescence	HCV replicon cells	>100 µM
C[C@@H]1[C@H](O)[C@@H](CO)O[C@H]1n1ccc(N)nc1=O	MTT / crystal violet	Madin-Darby bovine kidney	>100 µg/mL
CCOC(=O)CCCCOc1ccccc1NC(C)C	-	RAJI	>20 µM
C#CCSc1n[nH]c(-c2ccc(Cl)cc2C)n1	-	Panc-1	>100 µg/mL
CC(=O)N[C@@H](Cc1ccccc1)C(=O)Oc1cc(Br)ccc1C(=O)Nc1ccc(C(F)(F)F)cc1	MTT	Human PBMCs	48.7 µM
CSc1nc(N)nc2c1ncn2[C@H]1C[C@H](O)[C@@H](CO)S1	-	MOLT-4	>100 µM
CCCN(CCC[C@H](NC(C)=O)C(=O)NCc1ccccc1)C(=O)NCCCl	-	CEM-IW	>100 µM
Clc1ccc2nc(/C=C/c3ccc4c(c3)OCO4)cc(Cl)c2c1	MTT	TZM-bl	39.11 µM
CCCCCc1cc2cn(COCCO)c(=O)nc2[nH]1	-	HEL	>200 µM
Nc1nc(N)c2cc3c(nc2n1)CCc1ccccc1-3	MTT	ACHN	32.4 µM
COc1ccc(/C=C2\S/C(=N/S(=O)(=O)c3ccc(F)cc3)NC2=O)cc1	MTS	Huh 5-2	88.77 µM
CCN(CC)C(=O)OCC1CN(C(C#N)(c2ccccc2)c2ccccc2)CCN1C(=O)c1cc(OC)c(OC)c(OC)c1	neutral red	MDM	≥100 µM
O=c1[nH]c(=O)n([C@H]2C[C@H](O)[C@@H](CO)O2)cc1I	-	HELF	8 µg/mL
COc1ccc(CCNC(=O)CCO[Si](C)(C)C(C)(C)C)cc1OC	-	HEK 293	<13.5 µM
OC[C@H]1C[C@@H](n2cnc3c(Cl)ncnc32)CO1	-	ATH8	>100 µM
Fc1cccc(Cn2ccc3nc(-c4ccccc4)nc-3c2)c1	-	MDBK	8.1 µg/mL
Nc1ncnc2c1ncn2[C@@H]1C[C@H](CO)[C@@H](O)[C@@H]1O	-	HELF	1.2 µg/mL
CCCCCCC#Cc1cc2cn(COCCO)c(=O)nc2o1	-	HEL	>50 µM
CCN(CC)C(=O)OCC1CN(Cc2cc(OC)c(OC)c(OC)c2)CCN1Cc1cc(OC)c(OC)c(OC)c1	neutral red	MDM	>10 µM
Nc1nc(Cl)c2ncn(CCCO)c2n1	-	PBL	>100 µM
Nc1ccn([C@H]2C=C[C@@H](CO)O2)c(=O)n1	-	RAJI	13 µM
COc1ccc(-c2cc(C(=O)O)c3ccccc3n2)cc1OC	-	HepG2	>20 µM
CCN(CC)C(=O)OCC1CN(Cc2ccccc2)CCN1C(=O)c1cc(OC)c(OC)c(OC)c1	neutral red	MDM	>100 µM
O=C(N[C@@H](CCCCNC(=O)c1cccc(O)c1C(=O)O)C(=O)OCc1ccccc1)OCc1ccccc1	XTT	C8166	125 µM
O=C(NCc1ccc(Cl)cc1)c1cn2c(CCN3CCOCC3)cc3cc(CN4CCOCC4)cc(c1=O)c32	MTS	DAUDI	15.9 µM
C=CCCCC(=O)NCC(c1ccc2c(c1)OCO2)C1OCCO1	-	HepG2	<7.5 µM
Nc1nc(N)c2cc3c(ccc4ccccc43)nc2n1	MTT	CCRF-CEM	1.8 µM
OC[C@H]1C[C@@H](n2cnc3c(=S)nc[nH]c32)CO1	-	ATH8	>100 µM
NCCCC[C@H](NC(=O)[C@H](CCCCN)NC(=O)[C@H](CCCCN)NC(=O)c1ccccc1)C(N)=O	XTT	C8166	300 µM
CCCCOc1nc(N)c2c(n1)N(Cc1cccc(CN3CCCC3)c1)CC(=O)N2	luminescence	Macrophage	>10 µM
O=C(Nc1ccc(Cl)c(Cl)c1)c1cc(Cl)ccc1O	tetrazolium	HepG2 cells	0.84 µM
Nc1nc(=S)c2ncn([C@H]3CO[C@@H](CO)C3)c2[nH]1	-	ATH8	>100 µM
Fc1cccc(F)c1-c1nc2ccn(Cc3ccc(Cl)c(Cl)c3)cc-2n1	-	MDBK	20 µg/mL
CCCCC(CN[C@@H]1CNC[C@H]1N(CCC(C)C)S(=O)(=O)c1ccc(N)cc1)NC(=O)[C@@H](NC(=O)OC)C(c1ccccc1)c1ccccc1	microscopy	T lymphoid cells	>10 µM
O=C(Nc1ccc(C(F)(F)F)cc1)c1ccc(Cl)cc1OS(=O)(=O)c1ccccc1	tetrazolium	HepG2 cells	2.8 µM
CC(=O)OC1C(OC(C)=O)[C@H](n2cnc3c2ncn2c(CCl)cc(=O)nc32)O[C@@H]1OC(C)=O	-	PBL	150 µM
O=C(O)CCC(=O)NCCCC[C@H](NC(=O)OCc1ccccc1)C(=O)NCCCCCC(=O)N[C@@H](CCCCNC(=O)CCC(=O)O)C(=O)OCc1ccccc1	XTT	C8166	400 µM
Nc1nc2c(ncn2COCCO)c(=O)[nH]1	MTT / crystal violet	Madin-Darby bovine kidney	>100 µg/mL
CCCCSc1n[nH]c(-c2ccco2)n1	-	THP-1	>100 µg/mL
Clc1ccc(Cn2ccc3nc(-c4ccccc4)nc-3c2)s1	-	MDBK	46 µg/mL
N#CC(N)=NCCCC[NH+]=C(N)NC(N)=NCCCCN=C(N)NC(N)=[NH+]CCCCN.[Cl-].[Cl-]	MTT	P4-CCR5	550 µg/mL
Cc1ccccc1OCc1cn(C[C@@]2(C)Cn3cc([N+](=O)[O-])nc3O2)nn1	MTT	J774	>40 µg/mL
COc1ccc2c(c1)C[C@@H]1C[C@]1(C(=O)N1C[C@@H]3CC[C@@H](CN(CCCC4CCCCC4)C3)C1)Cn1c-2c(C2CCCCC2)c2ccc(C(=O)NS(=O)(=O)N(C)C)cc21	resazurin / fluorescence	HCV replicon cells	5 µM
Clc1cc(/C=C/c2ccccc2)nc2ccccc12	MTT	TZM-bl	53.43 µM

Blank or dashed fields: not listed here. Lines come from different laboratories, so protocols vary.